Data on 1 molecule can be found in patent US7777025B2, “Transition state analog inhibitors of ricin A-chain” (dated 2010).

The target of the assay is ricin toxin-A (RTA) (Ricinus communis, UniProt P02879). Nature of the assay: Inhibition kinetics of RTA, competitive with substrate A-10; adenine release quantitated by HPLC. Particulars: ternary complex of RTA, DADMe-A and 9-deazaadenine.

Structures are written as SMILES.

Take `Nc1ncnc2cc[nH]c12`: the “effect on the activation by DADMe-A” value is “abolish the activation effect”.
